This data set relates to beta amyloid aggregates. Description: Clinical trial: fluorescence lifetime ratio (signal/background) in the eye after ocular dosing of Fluorescent Ligand, discriminating HV from AD. It is filed as in vivo, human. The conditions noted are these: HV N=20 vs AD N=20; three doses to test eye, measurement 18 hrs after first dose; FIG. 5.

With `COCCOCCOCCOC(=O)/C(C#N)=C/c1ccc2cc(N3CCCCC3)ccc2c1` [Aftobetin], the “threshold ratio (signal/background) that can discriminate between the groups” value is given as “around 0.37”.

These data come from patent US20200138351A1, “Method for Measuring Fluorescence in Ocular Tissue” (Cognoptix, Inc., priority 2013, published 2020).
